Compound potency records, mixed from different reports. Data source: NIAID ChemDB in PubChem.

All rows: target-level tests; organism: HIV-1; protein: Reverse transcriptase; measure: IC50

a–b is a range or a potency band. Blank or dashed fields: not listed here. Neighbouring rows are from separate reports. ICn is the concentration giving n% inhibition.

SMILES	strain or isolate	mutations	method	value
COc1c(-c2cc(C)n(-c3ccccc3)n2)c(O)c(S(=O)(=O)Oc2ccc([N+](=O)[O-])cc2)c2occc12	-	-	RT activity / radiometric	0.0000034 µM
CCN1c2ncc(CCOc3ccc4cc(CC(=O)O)ccc4c3C)cc2C(=O)N(C)c2cccnc21	-	RT-K103N Y181C	nucleotide incorporation / radiometric	0.1–1 µM
CCC(=O)c1ccc(F)c([C@H]2C[C@H]2NC(=O)Nc2ccc(Br)cn2)c1O	IIIB	RT-L100I	-	0.014 µM
Cc1occc1C(=S)Nc1ccc(Cl)c(/C=N/OC(C)(C)C)c1	-	RT-V106A	nucleotide incorporation / radiometric	39 µM
CN1CCN(c2cc(N)cc3c2CCN(c2nn4c(C5CC5)nnc4c4ccccc24)C3)CC1	98US_MSC5016	-	RT activity / fluorescence	16.4 µM
COc1cc(/C=C/C(=O)OC[C@H]2O[C@@H](Oc3c(-c4ccc(O)c(O)c4)oc4cc(O)cc(O)c4c3=O)[C@H](O)[C@@H](O)[C@H]2O)ccc1O	-	-	nucleotide incorporation / radiometric	25.62 µg/mL
COc1c(-c2cc(C)on2)c(O)c(S(=O)(=O)OC2CCCC2)c2occc12	-	-	RT activity / radiometric	0.0000062 µM
Cc1cccc(CS(=O)(=O)c2cccc[n+]2[O-])c1	-	-	nucleotide incorporation / radiometric	132 µg/mL
Cc1cc(C)cc(S(=O)(=O)c2c(C(=O)NCCO)[nH]c3ccc(Cl)cc23)c1	-	RT-K103N	nucleotide incorporation / radiometric	1.9 µM
c1ccc(-c2nnc3c4ccccc4c(N4CCc5ccccc5C4)nn23)cc1	IIIB	-	RT activity / fluorescence	48.2 µM
COc1ccc(N/C(C)=C\C(=O)c2c(O)c(S(=O)(=O)Oc3ccc([N+](=O)[O-])cc3)c3occc3c2OC)cc1	-	-	RT activity / radiometric	0.0000071 µM
CCN1c2ncc(CCOc3ccc(-c4ccc(C(=O)O)c(F)c4)cc3C)cc2C(=O)N(C)c2cccnc21	IIIB	RT-K103N Y181C	nucleotide incorporation / radiometric	<0.05 µM
CCN1c2ncc(CCOc3ccc(C(=O)O)c4ccccc34)cc2C(=O)Nc2c(C)cc(F)nc21	WT	-	nucleotide incorporation / radiometric	<0.1 µM
Cc1cc(O)c2c(c1)C(=O)c1cc(O)cc(O)c1C2=O	-	-	RNase H / radiometric	>100 µM
COc1c(-c2cc(C)n(-c3ccccc3)n2)c(O)c(S(=O)(=O)OC2CCCC2)c2occc12	-	-	RT activity / radiometric	0.0000044 µM
CCN1c2ncc(CCOc3ccc(C(=O)O)c4ccccc34)cc2C(=O)N(C)c2ccc(F)nc21	-	RT-K103N Y181C	nucleotide incorporation / radiometric	0.1–1 µM
Cc1occc1C(=S)Nc1ccc(Cl)c(C(=O)OCC2CC2)c1	-	RT-L100I	nucleotide incorporation / radiometric	>50 µM
O=C(O)c1cc(O)c2c(c1)[C@@H]([C@H]1c3cc(C(=O)O)cc(O)c3C(=O)c3c(O[C@@H]4O[C@H](CO)[C@@H](O)[C@H](O)[C@H]4O)cccc31)c1cccc(O[C@@H]3O[C@H](CO)[C@@H](O)[C@H](O)[C@H]3O)c1C2=O	-	Q475A	RNase H / radiometric	24.8 µM
Nc1ncnc2c1ncn2[C@H]1CC[C@@H](COP(=O)(O)OP(=O)(O)OP(=O)(O)O)O1	-	RT-A62V V75I F77L F116Y Q151M	nucleotide incorporation / radiometric	38 µM
O=C(O)c1cc(O)c2c(c1)C(=O)c1cccc(O)c1C2=O	-	-	RNase H / radiometric	60 µM
O=[N+]([O-])c1ccc2c(c1)CN(c1nn3c(C4CC4)nnc3c3ccccc13)CC2	IIIB	-	RT activity / fluorescence	5.45 µM
CCN1c2ncc(CCOc3ccc(N(CC(=O)O)C(C)=O)cc3C)cc2C(=O)N(C)c2cccnc21	IIIB	RT-K103N Y181C	nucleotide incorporation / radiometric	>0.1 µM
c1ccc2c(c1)c(N1CCc3[nH]ccc3C1)nn1c(C3CC3)nnc21	IIIB	-	RT activity / fluorescence	3.7 µM
CCN1c2ncc(CCOc3cccc4c3ccc[n+]4[O-])cc2C(=O)Nc2c(C)cc(Cl)nc21	-	RT-Y181C	nucleotide incorporation / radiometric	0.02 µM
C=CCO/N=C/c1cc(NC(=S)c2ccoc2C)ccc1Cl	-	RT-Y188H	nucleotide incorporation / radiometric	7 µM
CCN1c2ncc(CCOc3ccc(-c4occc4C(=O)O)cc3)cc2C(=O)N(C)c2cccnc21	IIIB	-	nucleotide incorporation / radiometric	>0.1 µM
c1ccc2c(c1)CCN(c1nn3c(-c4cscn4)nnc3c3ccccc13)C2	IIIB	-	RT activity / fluorescence	1.44 µM
COc1c(C(=O)/C=C(/C)Nc2ccc(F)cc2)c(O)c(S(=O)(=O)Oc2ccc(F)cc2)c2occc12	-	-	RT activity / radiometric	0.0000065 µM
CCN1c2ncc(CCOc3ccc(CCC(=O)O)c4ccccc34)cc2C(=O)Nc2c(C)cc(Cl)nc21	-	RT-Y188L	nucleotide incorporation / radiometric	>1 µM
CCN1c2ncc(CCOc3ccc(-c4cc(C)[n+]([O-])c(C)c4)cc3C)cc2C(=O)N(C)c2cccnc21	IIIB	-	nucleotide incorporation / radiometric	<0.05 µM
CC(C)=CCN1Cc2cc(Cl)cc3[nH]c(=O)n(c23)C[C@@H]1C	-	-	RT activity	0.2 µM
COc1c(C(=O)/C=C(/C)Nc2ccc(Cl)cc2)c(O)c(S(=O)(=O)OC2CCCCC2)c2occc12	-	-	RT activity / radiometric	0.0000082 µM
Cc1c(N2CCc3ccccc3C2)nn2c(C)nnc2c1C	98US_MSC5016	-	RT activity / fluorescence	47.4 µM
COc1c(C(=O)/C=C(/C)Nc2ccc([N+](=O)[O-])cc2)c(O)c(S(=O)(=O)Oc2ccc([N+](=O)[O-])cc2)c2occc12	-	-	RT activity / radiometric	0.0000069 µM
Nc1ccn([C@H]2CC[C@@H](COP(=O)(O)OP(=O)(O)OP(=O)(O)O)O2)c(=O)n1	IIIB	RT-1(IIIB)	nucleotide incorporation / radiometric	0.43 µM

The last 4 rows once more:

| SMILES | strain or isolate | mutations | method | value |
|---|---|---|---|---|
| COc1c(C(=O)/C=C(/C)Nc2ccc(Cl)cc2)c(O)c(S(=O)(=O)OC2CCCCC2)c2occc12 | - | - | RT activity / radiometric | 0.0000082 µM |
| Cc1c(N2CCc3ccccc3C2)nn2c(C)nnc2c1C | 98US_MSC5016 | - | RT activity / fluorescence | 47.4 µM |
| COc1c(C(=O)/C=C(/C)Nc2ccc([N+](=O)[O-])cc2)c(O)c(S(=O)(=O)Oc2ccc([N+](=O)[O-])cc2)c2occc12 | - | - | RT activity / radiometric | 0.0000069 µM |
| Nc1ccn([C@H]2CC[C@@H](COP(=O)(O)OP(=O)(O)OP(=O)(O)O)O2)c(=O)n1 | IIIB | RT-1(IIIB) | nucleotide incorporation / radiometric | 0.43 µM |